Laboratory results from US20100216721A1.

Columns and labels:
[1] = target: HIV-1 YU2 gp120 (HIV-1 strain YU2), P35961; assay: SPR competition: 100 nM YU2 gp120 with HNG-156 over immobilized IgG b6 (CM5 chip); blocked ligand: b6
[2] = target: HIV-1 YU2 gp120 (HIV-1 strain YU2), P35961; assay: SPR (Biacore 3000); peptide over immobilized gp120; reference 12p1 on YU2 gp120
[3] = target: HIV-1 YU2 gp120 (HIV-1 strain YU2), P35961; assay: SPR; peptide over immobilized YU2 gp120

| Binder | IC50 (read off the curve) [1] [nM] | orders of magnitude higher affinity than 12p1 (orders of magnitude) [2] | Kd [3] [nM] |
| --- | --- | --- | --- |
| RINNIPWSEAMM (modifications not checked) [HNG-156] | 60 | 3 | – |
| RINNIPWSEAMM (modifications not checked) [HNG-124] | – | – | 9 |
